Pooled drug test results. Numbers come from NIAID ChemDB, via PubChem.

Common to all: target-level tests

Conditions beyond the fields shown may differ between rows. ICn: concentration for n% inhibition. Percent inhibition refers to the dose given; in toxicity tests it is the harm to the cells. An empty or dashed field is not shown. a–b is a range or a potency band.

smiles | read by | protein | dose | endpoint | organism | strain or isolate | value
CC(C)(C)c1cccc(CCC2(C3CCCC3)CC(=O)CC(=O)O2)c1 |  | Nonstructural protein 5B |  | IC50 | Hepatitis C virus |  | 1–10 µM
CC(=O)N[C@@H](CC(=O)O)C(=O)N[C@@H](Cc1ccccc1)C(=O)N[C@H](C(=O)N[C@@H](CCC(=O)O)C(=O)N[C@@H](CC1CCCCC1)C(=O)N[C@@H](CS)C(=O)C(=O)O)C(c1ccccc1)c1ccccc1 |  | NS3/NS4A serine protease |  | Ki | Hepatitis C virus |  | 125 µM
CC(C)=CCc1c(-c2ccc(OCc3ccccc3)cc2)nc2cc(C(=O)O)[nH]n2c1=O |  | RNA-dependent RNA polymerase |  | IC50 | Hepatitis C virus |  | 1–10 µM
CC(=O)N[C@@H](CC(=O)O)C(=O)N[C@@H](C(=O)N[C@H](C(=O)N[C@@H](CCC(=O)O)C(=O)N[C@@H](CC1CCCCC1)C(=O)N[C@@H](CS)C(=O)C(=O)O)C(c1ccccc1)c1ccccc1)c1ccccc1 |  | NS3/NS4A serine protease |  | Ki | Hepatitis C virus |  | 2.2 µM
COc1ccc2c(O[C@@H]3CC4C(=O)NC5C(/C=C\CCCCC[C@H](NC(=O)OC6CCCC6)C(=O)N4C3)C5C(=O)O)cc(-c3csc(NC(C)C)n3)nc2c1 |  | NS3/NS4A serine protease |  | Ki | Hepatitis C virus |  | 0.0003–0.00066 µM
O=C(O)c1cc2nc(-c3ccc(Oc4ccccc4)cc3)cc(-c3ccc(Oc4ccccc4)cc3)n2n1 |  | RNA-dependent RNA polymerase |  | IC50 | Hepatitis C virus |  | 1–10 µM
Nc1nc(=O)n([C@@H]2C=C(F)[C@H](CO)O2)cc1F |  | DNA polymerase |  | IC50 | Hepatitis B virus |  | 0.22 µM
c1ccc(COc2ccccc2-c2nc3ccccc3[nH]2)cc1 |  | NS5B RdRp activity | 100 µM | inhibition | Hepatitis C virus | 1b | 0%
CC(=O)N[C@@H](CC(=O)O)C(=O)N[C@H](CC(C(=O)O)C(=O)O)C(=O)N[C@H](C(=O)N[C@@H](CC(C)C)C(=O)N[C@@H](CC1CCCCC1)C(=O)N[C@@H](CS)C(=O)C(=O)O)C(c1ccccc1)c1ccccc1 |  | NS3/NS4A serine protease |  | Ki | Hepatitis C virus |  | 0.00004 µM
COc1ccc(-c2ccccc2O[C@@H]2CC(C(=O)NC3(C(=O)O)CC3)N(C(=O)[C@@H](NC(=O)[C@@H](NC(C)=O)C3CCCCC3)C(C)C)C2)cc1 |  | NS3 protease |  | IC50 | Hepatitis C virus |  | >200 µM
COc1ccc2ccccc2c1/C=N/NC(=O)c1cc(O)c(O)c(O)c1 | RNase H / substrate cleavage | RNase H | 10 µM | inhibition | Hepatitis B virus | gtH | <24%
FC(F)(F)c1cc(C(F)(F)F)c2ccc3ncc(-c4nc5ccccc5o4)n3c2n1 | luciferase / reporter gene | Envelope glycoprotein 2 |  | IC50 | Hepatitis C virus | JFH-1 | >20 µM
COc1cccc(-c2cc(-c3ccc(Cl)cc3Cl)nc3cc(C(=O)O)nn23)c1 |  | RNA-dependent RNA polymerase |  | IC50 | Hepatitis C virus |  | >10 µM
CC(=O)N[C@H](C(=O)N[C@H](C(=O)N1C[C@H](Oc2ccncc2)CC1C(=O)NC1(C(=O)O)CC1)C(C)C)C1CCCCC1 |  | NS3 protease |  | IC50 | Hepatitis C virus |  | 170 µM
COc1ccc2c(O[C@@H]3C[C@@H](C(=O)NC4(C(=O)O)CC4)N(C(=O)[C@@H](NC(=O)[C@@H](NC(C)=O)C4CCCCC4)C(C)C)C3)ccnc2c1 |  | NS3/NS4A serine protease |  | IC50 | Hepatitis C virus |  | 0.8 µM
FC(F)(F)c1cc(C(F)(F)F)c2ccc3nc(-c4nnco4)cn3c2n1 | luciferase / reporter gene | Envelope glycoprotein 2 |  | IC50 | Hepatitis C virus | JFH-1 | 0.18 µM
COC(=O)c1ccc(-c2ccc(CN(C(=O)c3ccc(Cl)cc3Cl)[C@@H](Cc3ccccc3)C(=O)O)s2)cc1 |  | RNA-dependent RNA polymerase |  | IC50 | Hepatitis C virus |  | <5 µM
NC(=O)c1c(N)sc2c1CCCCC2 | RNase H / substrate cleavage | RNase H | 10 µM | inhibition | Hepatitis B virus | gtH | >43%
CC(=O)N[C@@H](CC(=O)O)C(=O)N[C@@H](CCC(=O)O)C(=O)N[C@H](C(=O)N[C@@H](CCC(=O)O)C(=O)N[C@@H](CC1CCCCC1)C(=O)N[C@@H](CC(F)F)C(=O)O)C(c1ccccc1)c1ccccc1 |  | NS3/NS4A serine protease |  | Ki | Hepatitis C virus |  | 0.02 µM
O=C(O)c1ccc(Cl)cc1NS(=O)(=O)c1cc(Cl)c(Cl)cc1Cl | nucleotide incorporation | HCV NS5B polymerase |  | IC50 | Hepatitis C virus | gt 1 | 11 µM
CC(=O)N[C@H](C(=O)N[C@H](C(=O)N1C[C@H](Oc2ccc(Br)cc2)CC1C(=O)NC1(C(=O)O)CC1)C(C)C)C1CCCCC1 |  | NS3 protease |  | IC50 | Hepatitis C virus |  | 25 µM
CCn1c(-c2ccccc2OCc2ccc(Cl)cc2)nc2ccccc21 |  | NS5B RdRp activity | 100 µM | inhibition | Hepatitis C virus | 1b | 0%
O=C(O)c1ccccc1NS(=O)(=O)c1cc(Cl)c(Cl)cc1Cl | nucleotide incorporation | HCV NS5B polymerase |  | IC50 | Hepatitis C virus | gt 1 | 26 µM
O=C(/C=C/c1ccc(O)c(O)c1)O[C@H]1[C@H](O)C[C@](O)(C(=O)O)C[C@H]1OC(=O)/C=C/c1ccc(O)c(O)c1 | ELISA | HBeAg | 10 µg/mL | inhibition | Hepatitis B virus | HepG 2.2.15 | 6.7%
C=CCN(C(=O)c1ccc(Cl)cc1I)C(Cc1ccccc1)C(=O)O |  | RNA-dependent RNA polymerase |  | IC50 | Hepatitis C virus |  | 5–20 µM
CC(=O)OC(=O)CCCC(=O)ON[C@H](CC(C(=O)O)C(=O)O)C(=O)N[C@H](C(=O)N[C@@H](CCC(=O)O)C(=O)N[C@@H](CC1CCCCC1)C(=O)N[C@@H](CS)C(=O)C(=O)O)C(c1ccccc1)c1ccccc1 |  | NS3/NS4A serine protease |  | Ki | Hepatitis C virus |  | 0.002 µM
FC(F)(F)c1cc(C(F)(F)F)c2cc(-c3ccccc3)c3ncc(-c4ccccc4)n3c2n1 | luciferase / reporter gene | Envelope glycoprotein 2 |  | IC50 | Hepatitis C virus | JFH-1 | >20 µM
O=C(O)c1cc2nc(-c3ccc(OCc4ccccc4)cc3)c(CCc3ccccc3)c(=O)n2[nH]1 |  | RNA-dependent RNA polymerase |  | IC50 | Hepatitis C virus |  | 1–10 µM
COC(=O)c1ccc(-c2ccc(CN([C@@H](Cc3ccccc3)C(=O)O)S(=O)(=O)c3c(C)cc(OC)c(C)c3C)cc2)o1 |  | RNA-dependent RNA polymerase |  | IC50 | Hepatitis C virus |  | >20 µM
CCOc1ccc(CCC2(C3CCCC3)CC(=O)CC(=O)O2)cc1 |  | Nonstructural protein 5B |  | IC50 | Hepatitis C virus |  | 1–10 µM
COc1ccc2cc(OC[C@@H]3C[C@H]4C(=O)N(C)CCCC/C=C/[C@@H]5C[C@@]5(C(=O)O)NC(=O)N34)c(-c3nc(C(C)C)cs3)nc2c1C | FRET | Nonstructural protein 3/4A |  | IC50 | Hepatitis C virus |  | <1 µM
Clc1ccc(-c2nc3ccccc3[nH]2)cc1Cl |  | NS5B RdRp activity | 100 µM | inhibition | Hepatitis C virus | 1b | 7.1%
Cc1cn([C@@H]2C[C@@H](N=[N+]=[N-])[C@H](CO)O2)c(=O)[nH]c1=O |  | DNA polymerase |  | IC50 | Hepatitis B virus |  | >10 µM
CC(=O)N[C@@H](CC(=O)O)C(=O)N[C@@H](C(=O)N[C@H](C(=O)N[C@@H](CCC(=O)O)C(=O)N[C@@H](CC1CCCCC1)C(=O)N[C@@H](CS)C(=O)C(=O)O)C(c1ccccc1)c1ccccc1)C(c1ccccc1)c1ccccc1 |  | NS3/NS4A serine protease |  | Ki | Hepatitis C virus |  | 11 µM
C=CCN(C(=O)c1ccc(Cl)cc1Cl)[C@@H](Cc1ccccc1)C(=O)O |  | RNA-dependent RNA polymerase |  | IC50 | Hepatitis C virus |  | 5–20 µM
CS(=O)(=O)NC(=O)c1cnn2c(C3CCCCC3)c(-c3ccc(OCc4ccccc4)cc3)cnc12 |  | RNA-dependent RNA polymerase |  | IC50 | Hepatitis C virus |  | 1–10 µM
CC(=O)N[C@@H](CC(=O)O)C(=O)N[C@@H](Cc1cc2ccccc2[nH]1)C(=O)N[C@H](C(=O)N[C@@H](CCC(=O)O)C(=O)N[C@@H](CC1CCCCC1)C(=O)N[C@@H](CS)C(=O)C(=O)O)C(c1ccccc1)c1ccccc1 |  | NS3/NS4A serine protease |  | Ki | Hepatitis C virus |  | 330 µM
O=C(O)[C@H](Cc1ccccc1)N(Cc1ccc(-c2ccc(Cl)cc2Cl)o1)C(=O)c1ccc(Cl)cc1Cl |  | RNA-dependent RNA polymerase |  | IC50 | Hepatitis C virus |  | <5 µM
Cc1cccc(CCC2(C3CCCC3)CC(=O)CC(=O)O2)c1 |  | Nonstructural protein 5B |  | IC50 | Hepatitis C virus |  | 10–50 µM
COc1ccc2ccccc2c1/C=N/NC(=O)c1ccc(O)c(O)c1 | RNase H / substrate cleavage | RNase H | 10 µM | inhibition | Hepatitis B virus | gtD | >43%
CC(=O)c1ccc(CCC2(C3CCCC3)CC(=O)CC(=O)O2)cc1Cl |  | Nonstructural protein 5B |  | IC50 | Hepatitis C virus |  | 1–10 µM
Fc1ccc(-c2nc3ccccc3[nH]2)cc1F |  | NS5B RdRp activity | 100 µM | inhibition | Hepatitis C virus | 1b | 0%